# Measurements from patent US20130023585A1, “Neuraminidase Inhibitors” (TSRL, INC., priority 2010, published 2013).
# Test system: Hong Kong/2369/2009 (H1N1) H275Y oseltamivir resistant
# Assay: Inhibition of viral cytopathic effect (CPE), neutral red
# Type: cell-based, influenza virus
# Settings: read-out: 50% effective concentration (EC50); MDCK cells, 3 to 4 days
smiles,measurement,value
"CCC(CC)O[C@@H]1C=C(C(=O)O)C[C@H](N)[C@H]1NC(C)=O [Oseltamivir Carboxylate, Oseltamivir carboxylate]",EC50,> 100 µM
